Results on 2 compounds are retold here after patent US20220280513A1, “ENHANCING THE ANTIVIRAL EFFICACY OF RNA VIRUS INHIBITION BY COMBINATION WITH MODULATORS OF PYRIMIDINE METABOLISM” (The Board of Trustees of the Leland Stanford Junior …, priority 2019, published 2022).

In this data set the test system is intracellular uridine and cytidine nucleotide levels. The data set can be described thus: LC-MS/MS analysis of intracellular nucleotides in A549 cells. Format: cell-based. The settings on record: 250 μM with 1 μM GSK983, 5 μM uridine, 6 h. Here is the method:
FIG. 7. LC-MS analysis of intracellular nucleotides. (A) LC-MS analysis of intracellular uridine and cytidine nucleotide levels after 6 h treatments. In all assays, the culture medium was supplemented with 5 μM uridine and 1 μM GSK983. Error bars represent ±S.D. of two replicates. (B) LC-MS detection of mono-, di- and tri-phosphates of CPU and 5-F-CPU in cells. LC-MS/MS was performed on an Agilent 1290 infinity II LC system tandem with 6370 triple quad mass spectrometer using ion pairing chromatography. LC separation was performed at 40° C. with a solvent flow rate of 0.25 mL/min on a Zorbax RRHD Extended-C18 column (2.1×150 mm, 1.8 μM). Buffer A contained 97% H2O, 3% MeOH, 5 mM tributylamine, 5.5 mM Acetic acid and 1 μM medronic acid with pH=5.0; Buffer B contains ca. 100% MeOH, 5 mM tributylamine, 5.5 mM Acetic acid and 5 μM medronic acid with pH=7.0 The initial mobile phase composition was 100% solvent A, and a constant or linear gradient was applied after sample injection with eluent B varying as follows: 0% at 2.5 min, 20% at 7.5 min, 45% at 14 min, 99% at 20 to 23 min, and 0% from 23.1 to 27.1 min. […] Samples were measured in the negative ESI mode with capillary voltage at −3.5 kV. […]
With optimized sampling and detection method in hand, pyrimidine nucleotide levels were measured in cells cultured with either 250 μM CPU, 5-F-CPU or 5′-F-CPU in combination with 1 μM GSK983 (FIG. 7A). […]

In the case of `O=c1[nH]c(=O)n([C@@H]2C=C(CO)[C@@H](O)[C@H]2O)cc1F` [5-F-CPU, 1-((1R,4R,5S)-4,5-dihydroxy-3-(hydroxymethyl)cyclopent-2-en-1-yl)-5-fluoropyrimidine-2,4(1H,3H)-dione], the “detection of the triphosphate in cells by LC-MS” value is listed as “could be detected”.

Turning to `O=c1ccn([C@@H]2C=C(CO)[C@@H](O)[C@H]2O)c(=O)[nH]1` [CPU, 1-((1R,4R,5S)-4,5-dihydroxy-3-(hydroxymethyl)cyclopent-2-en-1-yl)pyrimidine-2,4(1H,3H)-dione], the “detection of the triphosphate in cells by LC-MS” value was “could be detected”.
